Reference: patent publication EP4821928A1, “BICYCLIC HETEROCYCLIC COMPOUND AND FUNGICIDE FOR AGRICULTURAL AND HORTICULTURAL USE CONTAINING SAME AS ACTIVE INGREDIENT” (dated 2026)

Legend:
Magnaporthe grisea = experiment: Rice blast disease pot test (Test Example A); conditions: for Rice blast disease pot test (control value): 250 ppm sprayed, 2.5 ml/pot, rice variety Sachikaze, degree of disease development 6 to 8 days after inoculation; for control value: Test Example A, rice blast disease pot test
Botrytis cinerea = experiment: Tomato gray mold pot test (Test Example B); conditions: for Tomato gray mold pot test (control value): 250 ppm sprayed, 2.5 ml/pot, tomato variety Oogata Fukuju, degree of disease development 2 to 3 days after inoculation; for control value: Test Example B, tomato gray mold pot test
[1] = system: Gray mold fungus (Botrytis cinerea); experiment: Gray mold anti-germ test (Test Example C); conditions: for Gray mold anti-germ test (rate of inhibition): 50 ppm/well, Czapek-dox broth, 25°C for 3 days, absorbance 600 nm; for rate of inhibition: Test Example C, gray mold anti-germ test
[2] = system: Fusarium blight fungus (Fusarium graminearum); experiment: Fusarium blight anti-germ test (Test Example D); conditions: for Fusarium blight anti-germ test (rate of inhibition): 50 ppm/well, Czapek-dox broth, 25°C for 3 days, absorbance 600 nm; for rate of inhibition: Test Example D, Fusarium blight anti-germ test
[3] = system: Anthracnose fungus (Glomerella cingulata); experiment: Anthracnose anti-germ test (Test Example E); conditions: for Anthracnose anti-germ test (rate of inhibition): 50 ppm/well, Czapek-dox broth, 25°C for 3 days, absorbance 600 nm; for rate of inhibition: Test Example E, anthracnose anti-germ test
[4] = system: Speckled leaf blotch fungus (Septoria tritici); experiment: Speckled leaf blotch anti-germ test (Test Example F); conditions: for Speckled leaf blotch anti-germ test (rate of inhibition): 50 ppm/well, Czapek-dox broth, 25°C for 3 days, absorbance 600 nm; for rate of inhibition: Test Example F, speckled leaf blotch anti-germ test

SMILES	Rice blast disease pot test (control value) (Magnaporthe grisea)	Tomato gray mold pot test (control value) (Botrytis cinerea)	Gray mold anti-germ test (rate of inhibition) [1]	Fusarium blight anti-germ test (rate of inhibition) [2]	Anthracnose anti-germ test (rate of inhibition) [3]	Speckled leaf blotch anti-germ test (rate of inhibition) [4]	control value (Magnaporthe grisea)	control value (Botrytis cinerea)	rate of inhibition [1]	rate of inhibition [2]	rate of inhibition [3]	rate of inhibition [4]
Cc1ccc2c(ncn2C2=NC(C)(C)Oc3c(Br)cccc32)c1C	L (L represents a control value or rate of inhibition of 50% or less)	H (H represents a control value or rate of inhibition of larger than 50%)	H (H represents a control value or rate of inhibition of larger than 50%)	H (H represents a control value or rate of inhibition of larger than 50%)	H (H represents a control value or rate of inhibition of larger than 50%)	L (L represents a control value or rate of inhibition of 50% or less)	–	–	–	–	–	–
Cc1cccc2c1OC1(CCC1)N=C2n1cnc2c(C)cccc21	H (H represents a control value or rate of inhibition of larger than 50%)	H (H represents a control value or rate of inhibition of larger than 50%)	H (H represents a control value or rate of inhibition of larger than 50%)	H (H represents a control value or rate of inhibition of larger than 50%)	H (H represents a control value or rate of inhibition of larger than 50%)	H (H represents a control value or rate of inhibition of larger than 50%)	–	–	–	–	–	–
COc1cccc2c1OC(C)(C)N=C2n1cnc2c(C)cccc21	H (H represents a control value or rate of inhibition of larger than 50%)	H (H represents a control value or rate of inhibition of larger than 50%)	H (H represents a control value or rate of inhibition of larger than 50%)	L (L represents a control value or rate of inhibition of 50% or less)	H (H represents a control value or rate of inhibition of larger than 50%)	H (H represents a control value or rate of inhibition of larger than 50%)	–	–	–	–	–	–
CC(=O)C1(C)N=C(n2cnc3c(C)c(C)ccc32)c2cccc(C)c2O1 (stereo not drawn)	H (H represents a control value or rate of inhibition of larger than 50%)	H (H represents a control value or rate of inhibition of larger than 50%)	H (H represents a control value or rate of inhibition of larger than 50%)	H (H represents a control value or rate of inhibition of larger than 50%)	H (H represents a control value or rate of inhibition of larger than 50%)	H (H represents a control value or rate of inhibition of larger than 50%)	–	–	–	–	–	–
COCC1(C)N=C(c2cnn3c(C)c(C)ccc23)c2ccc(C)cc2O1 (stereo not drawn)	H (H represents a control value or rate of inhibition of larger than 50%)	H (H represents a control value or rate of inhibition of larger than 50%)	H (H represents a control value or rate of inhibition of larger than 50%)	H (H represents a control value or rate of inhibition of larger than 50%)	H (H represents a control value or rate of inhibition of larger than 50%)	H (H represents a control value or rate of inhibition of larger than 50%)	–	–	–	–	–	–
C=C(C)c1cccc2c1ncn2C1=NC(C)(C)Oc2c(C)cccc21	H (H represents a control value or rate of inhibition of larger than 50%)	L (L represents a control value or rate of inhibition of 50% or less)	H (H represents a control value or rate of inhibition of larger than 50%)	L (L represents a control value or rate of inhibition of 50% or less)	H (H represents a control value or rate of inhibition of larger than 50%)	L (L represents a control value or rate of inhibition of 50% or less)	–	–	–	–	–	–
Cc1ccc2c(c1)C(n1cnc3c(C)c(Cl)ccc31)=NC(C)(C)O2	L (L represents a control value or rate of inhibition of 50% or less)	L (L represents a control value or rate of inhibition of 50% or less)	H (H represents a control value or rate of inhibition of larger than 50%)	L (L represents a control value or rate of inhibition of 50% or less)	H (H represents a control value or rate of inhibition of larger than 50%)	L (L represents a control value or rate of inhibition of 50% or less)	–	–	–	–	–	–
CCCCC1(C)N=C(c2cnn3c(C)c(C)cnc23)c2cccc(F)c2O1 (stereo not drawn)	–	–	–	–	–	–	H (H represents a control value or rate of inhibition of larger than 50%)	H (H represents a control value or rate of inhibition of larger than 50%)	H (H represents a control value or rate of inhibition of larger than 50%)	H (H represents a control value or rate of inhibition of larger than 50%)	H (H represents a control value or rate of inhibition of larger than 50%)	H (H represents a control value or rate of inhibition of larger than 50%)
COc1cccc2c1OC(C)(C)N=C2n1cnc2c(Cl)cccc21	L (L represents a control value or rate of inhibition of 50% or less)	H (H represents a control value or rate of inhibition of larger than 50%)	H (H represents a control value or rate of inhibition of larger than 50%)	L (L represents a control value or rate of inhibition of 50% or less)	H (H represents a control value or rate of inhibition of larger than 50%)	L (L represents a control value or rate of inhibition of 50% or less)	–	–	–	–	–	–
Cc1cccc2c1OC(C)(C)N=C2n1cnc2c(C(F)(F)F)cccc21	L (L represents a control value or rate of inhibition of 50% or less)	H (H represents a control value or rate of inhibition of larger than 50%)	H (H represents a control value or rate of inhibition of larger than 50%)	L (L represents a control value or rate of inhibition of 50% or less)	H (H represents a control value or rate of inhibition of larger than 50%)	L (L represents a control value or rate of inhibition of 50% or less)	–	–	–	–	–	–
CCCC1(C)N=C(n2cnc3c(C)c(C)cnc32)c2ccccc2O1 (stereo not drawn)	–	–	–	–	–	–	H (H represents a control value or rate of inhibition of larger than 50%)	H (H represents a control value or rate of inhibition of larger than 50%)	H (H represents a control value or rate of inhibition of larger than 50%)	H (H represents a control value or rate of inhibition of larger than 50%)	H (H represents a control value or rate of inhibition of larger than 50%)	H (H represents a control value or rate of inhibition of larger than 50%)
CC1(C)N=C(n2cnc3ccccc32)c2ccccc2O1	H (H represents a control value or rate of inhibition of larger than 50%)	H (H represents a control value or rate of inhibition of larger than 50%)	L (L represents a control value or rate of inhibition of 50% or less)	L (L represents a control value or rate of inhibition of 50% or less)	H (H represents a control value or rate of inhibition of larger than 50%)	L (L represents a control value or rate of inhibition of 50% or less)	–	–	–	–	–	–
Cc1c(Cl)ccc2c1ncn2C1=NC(C)(C)Oc2c(F)cccc21	L (L represents a control value or rate of inhibition of 50% or less)	L (L represents a control value or rate of inhibition of 50% or less)	H (H represents a control value or rate of inhibition of larger than 50%)	L (L represents a control value or rate of inhibition of 50% or less)	H (H represents a control value or rate of inhibition of larger than 50%)	L (L represents a control value or rate of inhibition of 50% or less)	–	–	–	–	–	–
Cc1ccnc2c1ncn2C1=NC(C)(C)Oc2cccc(F)c21	H (H represents a control value or rate of inhibition of larger than 50%)	H (H represents a control value or rate of inhibition of larger than 50%)	L (L represents a control value or rate of inhibition of 50% or less)	L (L represents a control value or rate of inhibition of 50% or less)	H (H represents a control value or rate of inhibition of larger than 50%)	L (L represents a control value or rate of inhibition of 50% or less)	–	–	–	–	–	–
